Biological target: HA-NanoLuc-VAMP2, P63027

B1: botulinum neurotoxin type B (protein)
chain: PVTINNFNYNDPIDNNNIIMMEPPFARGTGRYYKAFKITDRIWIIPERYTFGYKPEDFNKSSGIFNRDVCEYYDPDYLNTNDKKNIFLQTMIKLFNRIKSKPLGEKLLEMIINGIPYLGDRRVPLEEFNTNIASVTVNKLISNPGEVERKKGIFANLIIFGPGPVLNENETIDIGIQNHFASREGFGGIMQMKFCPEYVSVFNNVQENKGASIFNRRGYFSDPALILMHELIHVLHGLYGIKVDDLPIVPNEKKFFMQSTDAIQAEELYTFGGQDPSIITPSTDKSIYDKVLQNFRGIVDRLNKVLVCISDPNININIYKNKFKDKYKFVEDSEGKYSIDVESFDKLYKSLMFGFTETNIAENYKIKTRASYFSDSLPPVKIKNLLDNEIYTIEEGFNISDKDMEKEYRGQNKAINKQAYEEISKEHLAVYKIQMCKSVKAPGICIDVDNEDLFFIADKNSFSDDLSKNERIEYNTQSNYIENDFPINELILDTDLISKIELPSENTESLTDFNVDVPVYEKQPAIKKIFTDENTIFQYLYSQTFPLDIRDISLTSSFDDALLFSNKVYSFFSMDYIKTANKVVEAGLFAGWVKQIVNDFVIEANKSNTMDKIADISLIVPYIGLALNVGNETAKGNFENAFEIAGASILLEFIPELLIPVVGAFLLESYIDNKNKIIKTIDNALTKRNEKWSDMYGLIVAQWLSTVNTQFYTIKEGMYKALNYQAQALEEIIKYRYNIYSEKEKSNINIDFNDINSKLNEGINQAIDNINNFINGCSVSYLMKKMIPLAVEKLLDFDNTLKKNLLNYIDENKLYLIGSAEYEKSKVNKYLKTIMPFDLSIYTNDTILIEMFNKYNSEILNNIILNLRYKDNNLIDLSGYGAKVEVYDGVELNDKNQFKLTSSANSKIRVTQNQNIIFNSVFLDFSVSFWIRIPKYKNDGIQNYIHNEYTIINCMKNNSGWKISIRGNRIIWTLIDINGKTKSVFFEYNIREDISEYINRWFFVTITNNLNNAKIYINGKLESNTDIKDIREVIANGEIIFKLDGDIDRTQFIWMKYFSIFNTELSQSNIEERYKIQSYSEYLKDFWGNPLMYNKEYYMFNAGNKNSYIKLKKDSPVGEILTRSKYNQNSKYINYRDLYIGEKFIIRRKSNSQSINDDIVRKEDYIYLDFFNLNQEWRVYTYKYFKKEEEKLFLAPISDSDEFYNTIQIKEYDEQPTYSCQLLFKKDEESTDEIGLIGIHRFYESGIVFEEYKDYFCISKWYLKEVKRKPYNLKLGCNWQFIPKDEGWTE
lowest toxin concentration with cleavage above the baseline, NanoLuc ELISA assay: detect VAMP cleavage by BoNT/B above the baseline down to 30 pM

From patent publication US20200024639
